Test results reported in article PMC2793005, “Dissecting the Role of Critical Residues and Substrate Preference of a Fatty Acyl-CoA Synthetase (FadD13) of Mycobacterium tuberculosis” (PLoS ONE, 2009).

Tests used:
Experiment in all cases: purified protein
Settings in all cases: pH 8.0; 37.0 °C
[1] = test system: Nc1ncnc2c1ncn2[C@@H]1O[C@H](COP(=O)(O)OP(=O)(O)OP(=O)(O)O)[C@@H](O)[C@H]1O
[2] = test system: CC(C)(COP(=O)(O)OP(=O)(O)OC[C@H]1O[C@@H](n2cnc3c(N)ncnc32)[C@H](O)[C@@H]1OP(=O)(O)O)[C@@H](O)C(=O)NCCC(=O)NCCS
[3] = test system: CCCCCCCCCCCCCCCC(=O)O

(Mycobacterium tuberculosis H37Rv)
Km [1]: 240 ± 50 µM
Km [2]: 130 ± 10 µM
Km [3]: 19.79 ± 5.67 µM
